The test system of this data set is GmrA (Z0639). Put plainly: EMSA with competition. The settings on record: 1 nM DNA, 0-120 nM GmrA, unlabeled competitor 10-150 nM; 20 mM Tris-HCl pH 7.5, 80 mM NaCl, 0.1 mM EDTA, 1 mM DTT, 37 C, 20 min, 20 uL; 10% native PAGE; recombinant protein; residues 1-338; protein details: N-terminal 6xHis (pET28a); label: DIG (terminal transferase); probe letters rebuilt from the primers and the genome.

On to “CTGCCACAGCGAGTGTTTATCCATTACACCTTCAGCGGTATAGAGTGAATTCACGATAAACAGCCCTGCGTTATATGAGTTATCGGCATGATTATCCGTTTCTGCAGGGTTTTTAATCGGACGATTAGTGGGTGAAATGAGGGGTTATTTGGGGGTTACAGGTAAATTCCAGGCAGAAAAAACCCCGCCGGTGGCGGGGAAGCACGTTGCTAACAAATTGCGCTTTATGTTGCCGGATGCGGCGTAAACGCCTTATCCGGCCTACAAGAATGTGCAAATTCAATAAATTGCAATTCAACTTGTAGGCCTGATAAGCGCAGCGCATCAGGCAATTTGGCGTTGCCGTCAGTCTCAGTTAATCAGGTTACAACGATTAACCCTGCAGCAGAGACAGAACCTGCTGCGGTACCTGGTTAGCTTTTGCCAGCACGGAGTTACCGGCCTGCTGAATGATCTGCGCTTTCGACATGTTGGACACTTCGGTCGCATAGTCGG (double strand) [fliA promoter (PfliA)]”, for which the binding result is “binds”.

The record behind these values is publication PMC5826968.
